The target in this assay is WT RBD (Wuhan SARS-CoV-2 RBD) (SARS-CoV-2) (UniProt P0DTC2). In words: BLI. On the technique in general: Biolayer interferometry detects binding as a change in optical thickness at a sensor tip.

Experimental findings from publication PMC8008340 are described below.

In general, Kd refers to the concentration at which binding is half-saturated. A higher Kd goes with weaker binding.

In the case of AZD1061, the Kd came to 5.13 nM.
Next, AZD8895: 2.18 nM.
